# Results deposited as PubChem BioAssay AID504761 (Drosophila RNAi Screening Center, 2011).
# Screen: 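Insect host genes that dengue virus relies on to spread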 (primary screen)
# System: D.Mel-2 cells from Drosophila
# Reagents: long dsRNA against Drosophila genes
# Conditions: infection with dengue virus type 2; dose and infection time not stated
# Measurement: 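Per well on two replicate plates, imaging gave the percent of cells positive for viral envelope protein, ranked by infection, and a nuclear count of cells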
# Direction: infection score: higher = more virus-infected cells; cell count: higher = more cells in the well
# Call rule: 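Very low infection ranking in both replicate wells (chance probability at most 0.065), then a retest showing infection dropped 1.5-fold or more at p below 0.05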
# Calls: active = confirmed: knock-down lowers infection; inactive = not picked or not confirmed
# The screen tested about 22,000 reagents; shown is a random part of those that have a named target and a result. Over the whole deposit, 116 (0.52%) were called active. 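Calls depend on retest data that are not deposited; infection was ranked per plate without normalising between plates; the unit of the infection score is not given.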 The raw values are shown without normalisation. A plus sign joins genes that one reagent is predicted to hit. The record does not give: the amount of reagent, the time to read-out.
predicted target,amplicon,"infection score, replicate 1","infection score, replicate 2","cell count, replicate 1","cell count, replicate 2",call
loaf,DRSC09130,5.78,2.2,6416,6323,inactive
kappaB-Ras + CG30503,DRSC06619,10.1,5.72,6432,6542,inactive
kappaB-Ras + CG30503,DRSC07636,9.05,5.44,6453,6878,inactive
kappaB-Ras + CG30503,DRSC25537,4.41,2.75,5960,5817,inactive
Ptpmeg2,DRSC18277,4.08,2.77,6200,6207,inactive
Ptpmeg2,DRSC18278,2.65,3.89,5764,5960,inactive
Ptpmeg2,DRSC23303,2.1,3.35,6038,6306,inactive
Ptpmeg2,DRSC26646,12.8,16,6266,6233,inactive
CG7568,DRSC16259,6.91,1.16,4267,517,inactive
CG7568,DRSC28378,,10.1,364,6048,inactive

In a second layout: 2 of the entries above.
predicted target | amplicon | infection score, replicate 1 | infection score, replicate 2 | cell count, replicate 1 | cell count, replicate 2 | call
kappaB-Ras + CG30503 | DRSC25537 | 4.41 | 2.75 | 5960 | 5817 | inactive
Ptpmeg2 | DRSC18277 | 4.08 | 2.77 | 6200 | 6207 | inactive

Continued.
predicted target,amplicon,"infection score, replicate 1","infection score, replicate 2","cell count, replicate 1","cell count, replicate 2",call
gsb-n,DRSC04021,1.41,0.3,6099,5601,inactive
gsb-n,DRSC04693,36,12.4,5223,4913,inactive
CG33110,DRSC16137,,,369,338,inactive
CG33110,DRSC27221,9.95,7.76,6274,5957,inactive
CG15254,DRSC01870,8.81,13,5268,6602,inactive
CG15254,DRSC21765,5.45,5.52,6638,6346,inactive
CG15254,DRSC29568,12.3,3.01,5499,997,inactive
intr,DRSC14528,0.58,2.24,6009,6059,inactive
CG13800 (retired record),DRSC08334,2.34,2.59,6358,6709,inactive
CG13800 (retired record),DRSC28906,20,11.4,4699,4497,inactive
CG33333,DRSC13233,1.5,1.67,6656,5759,inactive
elgi,DRSC10242,24,7.24,5323,6338,inactive
elgi,DRSC29665,,8.56,399,5584,inactive
